Pooled drug test results. Numbers come from NIAID ChemDB, via PubChem.

All rows: growth or infection tests; organism: Aspergillus fumigatus; read-out: EC50

ECn: concentration that inhibits the pathogen or its effect by n%.

compound	strain or isolate	read by	result
CN(c1ccccc1)c1cc2ccccc2[n+](C)c1.[I-]	ATCC 90906	resazurin	>20 µg/mL
CCN(CC)C(=O)Oc1c(OC)cc2ccnc3c2c1N(C)C=C3	-	-	>15 µg/mL
NC(=O)c1cc[n+](CCC[n+]2cccc(/C=N/O)c2)cc1.[Br-].[Br-]	-	broth dilution	>20 µg/mL
Cc1ccc(-c2noc(C)c2C=O)cc1	Clinical isolates	-	37.86 µg/mL
COc1cc2ccnc3c2c(c1OC(=O)c1ccc(C)cc1)N(C)C=C3	-	-	>15 µg/mL
C[n+]1cccc(Nc2ccccc2)c1.[I-]	ATCC 90906	resazurin	>20 µg/mL
COc1cc2ccnc3c2c(c1OC(=O)N1CCCC1)N(C)C=C3	-	-	>15 µg/mL
C[n+]1c2ccc(Cl)cc2cc2c1c1ccccc1n2CCCCCC1CCCCC1.[I-]	ATCC 90906	resazurin	0.8 µg/mL
O=Cc1cc(-c2ccc(F)cc2)no1	Clinical isolates	-	39.74 µg/mL
NC(=O)c1cc[n+](Cc2ccc(C[n+]3ccc(/C=N/O)cc3)s2)cc1.[Cl-].[Cl-]	-	broth dilution	>20 µg/mL
O=Cc1cc(-c2ccccc2Cl)no1	Clinical isolates	-	>50 µg/mL
NC(=O)c1cc[n+](CCCC[n+]2ccccc2/C=N/O)cc1.[Br-].[Br-]	-	broth dilution	>20 µg/mL
COc1cc2ccnc3c2c(c1OC(=O)c1ccc(C(C)(C)C)cc1)N(C)C=C3	-	-	10 µg/mL
Cc1cc(C[n+]2cccc(C=NO)c2)on1.[Br-]	-	broth dilution	>20 µg/mL
COc1cc2ccnc3c2c(c1OC(=O)c1cc(F)ccc1F)N(C)C=C3	-	-	>15 µg/mL
O=Cc1cc(-c2ccccc2Cl)on1	Clinical isolates	-	47.62 µg/mL
COc1ccccc1N(CCCCCC1CCCCC1)c1ccc[n+](C)c1.[I-]	ATCC 90906	resazurin	>20 µg/mL
Cc1onc(-c2ccccc2Cl)c1C=O	Clinical isolates	-	48.76 µg/mL
C[n+]1cccc(N(CCCCCC2CCCCC2)c2ccccc2C(F)(F)F)c1.[I-]	ATCC 90906	resazurin	>20 µg/mL
O=Cc1cc(-c2cccc(Cl)c2)no1	Clinical isolates	-	22.16 µg/mL
O/N=C/c1cc[n+](Cc2ccc(C[n+]3ccc(/C=N/O)cc3)s2)cc1.[Cl-].[Cl-]	-	broth dilution	>20 µg/mL

Repeating the first 2 entries:

compound | strain or isolate | read by | result
CN(c1ccccc1)c1cc2ccccc2[n+](C)c1.[I-] | ATCC 90906 | resazurin | >20 µg/mL
CCN(CC)C(=O)Oc1c(OC)cc2ccnc3c2c1N(C)C=C3 | - | - | >15 µg/mL

Blank or dashed fields: not listed here. Neighbouring rows are from separate reports.